Pooled drug test results. Numbers come from NIAID ChemDB, via PubChem.

All rows: tests in culture; organism: HIV-2; endpoint: inhibition

Neighbouring rows are from separate reports.

smiles	cells	method	dose	strain or isolate	result
O=C(NCCc1ccccc1)Nc1nncs1	MT-4	RT activity	10 µg/mL	-	57%
CC(C)[C@H](NC(=O)[C@H](Cc1ccccc1)C[C@H](O)[C@H](Cc1ccccc1)NC(=O)OC(C)(C)C)C(=O)N[C@@H](Cc1ccccc1)C(=O)N1CCOCC1	PBL	RT activity	1 µM	ROD	74%
CCOP(=O)(CC(O)n1cc(N2C=CC(NC(C)=O)NC2=O)nn1)OCC	-	-	100 µM	ROD	0%
CC(C)CN(C[C@@H](O)[C@H](Cc1ccccc1)NC(=O)O[C@H]1CO[C@H]2OCC[C@H]21)S(=O)(=O)c1ccc2nc(NC3CCN(C4CCCC4)CC3)sc2c1	MT-4	reporter gene	0.0064 µM	ROD	90%
CCOP(=O)(OCC)C(O)n1cc(N2C=CC(NC(C)=O)NC2=O)nn1	CEM	-	100 µM	ROD	0%
CCn1c(C)c(C(=O)OC)c(C(=O)OC)c1Cc1ccccc1	CEM + CEM-SS	cytopathic effect / MTT	10 µM	ROD	0%
C[n+]1cn(-c2cn(C(O)P(=O)(O)O)nn2)c(=O)[nH]c1=O	CEM	-	100 µM	ROD	0%
O=C(NCCc1ccccc1)Nc1nc(C(F)(F)F)cs1	MT-4	RT activity	1 µg/mL	-	95%
CCOP(=O)(Cn1cc(-n2ccc(=O)[nH]c2=O)nn1)OCC	CEM	-	100 µM	ROD	0%
COc1c(C)c2c(c(O)c1C/C=C(\C)CCC(=O)O)C(=O)OC2	PBL(CD4+) + PBL	RT activity	1 µM	UC7	80%
CC(C)N(C[C@H](O)[C@H](Cc1ccccc1)NC(=O)C(CC(N)=O)NC(=O)C1C=Cc2ccccc2N1)NC(=O)OC(C)(C)C	MT-2	cytopathic effect / RT activity	0.03 µM	ROD	90%
Cc1cc(C)c(S(=O)(=O)OCC2OC3OC4C(CO)OC(OC5C(CO)OC(OC6C(CO)OC(OC7C(CO)OC(OC8C(CO)OC(OC9C(C[n+]%10ccccc%10)OC(OC2C(O)C3O)C(O)C9O)C(O)C8O)C(O)C7O)C(O)C6O)C(O)C5O)C(O)C4O)c(C)c1	MOLT-4	syncytia	64.4 µg/mL	GH-1	100%
COc1cc(C)cc2c(-c3c(O)cc(O)c4c3C[C@H](C)N[C@H]4C)cc(-c3cc(-c4c(O)cc(O)c5c4C[C@H](C)N[C@H]5C)c4cc(C)cc(OC)c4c3O)c(O)c12	MT-2	cytopathic effect / XTT	250 µM	NIH-DZ	40%
CC(C)CN(C[C@@H](O)[C@H](Cc1ccccc1)NC(=O)O[C@H]1CO[C@H]2OCC[C@H]21)S(=O)(=O)c1ccc2nc(NC3CCN(C4CCCC4)CC3)sc2c1	MT-4	reporter gene	6.4 nM	ROD	90%
O=C(NCCc1ccccc1)Nc1nc2c(Cl)cccc2s1	MT-4	RT activity	0.1 µg/mL	-	1%
Nc1ccn([C@H]2CC[C@@H](CO)O2)c(=O)n1	CEM + CEM-SS	cytopathic effect / XTT	25 µM	ROD	0.03%
CCCCN1C(=O)[C@@H](Cc2ccccc2)NC1=S	MT-4	cytopathic effect / XTT	1 µg/mL	-	20%
COc1ncnc(NS(=O)(=O)c2ccc(N=C3C(=O)N(CN4CCCCC4)c4ccccc43)cc2)c1OC	MT-4	cytopathic effect / MTT	2 µg/mL	ROD	13%

2 of the rows above, restated:

{"smiles": "O=C(NCCc1ccccc1)Nc1nc(C(F)(F)F)cs1", "cells": "MT-4", "method": "RT activity", "dose": "1 µg/mL", "result": "95%"}
{"smiles": "CC(C)[C@H](NC(=O)[C@H](Cc1ccccc1)C[C@H](O)[C@H](Cc1ccccc1)NC(=O)OC(C)(C)C)C(=O)N[C@@H](Cc1ccccc1)C(=O)N1CCOCC1", "cells": "PBL", "method": "RT activity", "dose": "1 µM", "strain or isolate": "ROD", "result": "74%"}

Inhibition is in % at the dose shown (toxicity tests: loss of growth or viability). Blank or dashed fields: not listed here.